Reference: patent US12161664B2, “Tetrathionate for cyanide and methylmercaptan poisoning” (dated 2024)

Assay: Tetrathionate reaction with cyanide to thiocyanate (ferric nitrate, absorption at 460 nm)
Conditions: excess cyanide, 37° C., pH 11, thiosulfate 5 mM, up to 60 min incubation

For `O=S(O)(O)=S`, which “reaction with cyanide (thiocyanate production)” value (listed as Thiosulfate) is on record?
The value was “did not react”.

And the “reaction with cyanide (thiocyanate production)” value (listed as thiosulfate)?
Its value is “no thiocyanate production was found”.
